Results deposited as PubChem BioAssay AID1259414 (Drosophila RNAi Screening Center, 2018)
The screen tested about 24,000 reagents; shown is a random part of those that have a named target and a result. In the full data, about 1,210 (5%) were called active. 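Inactive calls also include excluded dsRNAs with several or no targets, genes unexpressed in JW18, and well A1, regardless of score.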 Names joined by + are all predicted targets of the reagent.

Test: 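Host factors increasing or decreasing Wolbachia levels in cultured fly cells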 (primary screen)
System: Drosophila JW18 cells infected with Wolbachia
Reagent: long dsRNA against Drosophila genes, 0.25 µg dsRNA per well of a 384-well plate
Timing: 5 days
Treatment: cells persistently infected with Wolbachia before knock-down; no added drug
Measurement: 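Automated imaging of bacterial rRNA staining divided by host cell count, reported as plate-normalised robust z-score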
Scale: Wolbachia per cell robust z: higher = more Wolbachia per host cell than the plate typical
Hit rule: 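Active if absolute robust z reaches 1.5 in two or more of three replicates, leaving out multi- or no-target dsRNAs, genes unexpressed in JW18 and A1 wells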

gene,amplicon,"Wolbachia per cell robust z, rep 1","Wolbachia per cell robust z, rep 2","Wolbachia per cell robust z, rep 3",activity call
CG14546,DRSC14890,-0.00737,0.538,1.53,inactive
mnb,DRSC20353,-0.671,0.161,0.826,inactive
mnb,DRSC23347,0.129,-0.845,-3.77,inactive
mnb,DRSC24961,-0.433,1.03,-1.26,inactive
mnb,DRSC28430,-0.799,-0.846,-1.18,inactive
nullo,DRSC18807,0.529,0.109,-0.159,inactive
nullo,DRSC29660,0.115,1.03,1.16,inactive
His3:CG33809 + His3:CG31613 + His3:CG33842 + 20 more,DRSC21267,5.31,1.9,6.36,inactive
CG5506,DRSC10511,-2.14,-0.973,0.423,inactive
Sfmbt,DRSC02552,-1.39,0.603,-0.13,inactive
Sfmbt,DRSC24312,-0.576,0.483,0.557,inactive
Alr,DRSC19469,-0.151,-0.808,-1.02,inactive
CG6324,DRSC19985,0.6,0.511,-0.167,inactive
fabp + sea,DRSC16114,-3.5,-0.451,-3.14,inactive
Qsox2,DRSC15287,-0.0301,0.612,1.65,inactive
Qsox2,DRSC26634,-0.628,1.53,1.14,inactive
PH4alphaMP,DRSC17031,-1.69,0.284,-1.01,inactive
Kmn1,DRSC19666,1.75,1.04,0.317,inactive
Kmn1,DRSC27299,-0.257,-0.371,-0.622,inactive
CG1575,DRSC18069,-0.717,0.0123,1.5,inactive
CG1575,DRSC27030,-2.62,-2,0.246,active
CG10948,DRSC09806,0.597,-0.444,0.788,inactive
MYPT-75D,DRSC10743,-0.0596,-1.09,0.662,inactive
CG3740,DRSC18508,0.209,-0.163,0.205,inactive
CR31054 + CG4849,DRSC28625,-0.693,-1.55,-0.631,inactive
CG15705,DRSC06576,-2.53,0.147,0.462,inactive
CG15705,DRSC29360,-0.143,-0.0815,0.00237,inactive
p120ctn,DRSC07753,0.338,-0.538,-0.374,inactive

Part of the list above, reformatted:
{"gene": "Kmn1", "amplicon": "DRSC27299", "Wolbachia per cell robust z, rep 1": -0.257, "Wolbachia per cell robust z, rep 2": -0.371, "Wolbachia per cell robust z, rep 3": -0.622, "activity call": "inactive"}
{"gene": "CG1575", "amplicon": "DRSC18069", "Wolbachia per cell robust z, rep 1": -0.717, "Wolbachia per cell robust z, rep 2": 0.0123, "Wolbachia per cell robust z, rep 3": 1.5, "activity call": "inactive"}
